Anti-infective test results gathered from many reports (values: NIAID ChemDB through PubChem).

Shared fields: tests in culture; species: HIV-1; read by: RT activity; measure: EC90

ECn is the concentration giving n% inhibition of infection, replication or growth.

compound	mutations	strain or isolate	cell line	value
Cc1nc2ccccc2nc1COC(=O)c1ccc(O)cc1		BaL	PBMC	>100 µM
COc1ccccc1C[C@H](C[C@H](O)[C@H](Cc1ccccc1)NC(=O)OC(C)(C)C)C(=O)N[C@H](C(=O)N[C@@H](Cc1ccccc1)C(=O)N1CCOCC1)C(C)C		MN	MT-2	0.1 µM
O=c1ccn([C@@H]2S[C@H](CO)[C@H]2CO)c(=O)[nH]1		xxBRU	PBMC	23.1 µM
Nc1nc(N)c2ncn([C@H]3CO[C@@H](CO)O3)c2n1		LAI	PBMC	2.4 µM
Cc1cn([C@@H]2C=C(F)[C@H](CO)C2)c(=O)[nH]c1=O		LAI	PBMC	100 µM
CCOC(=O)[C@H](C)NP(=O)(OC[C@@H]1OC[C@H](n2cnc3c(=O)[nH]c(N)nc32)O1)Oc1ccccc1		LAI	PBMC	1.2 µM
CN1c2c(-c3ccccc3)nn(CC(=O)N/N=C/c3ccc(Cl)cc3Cl)c2-c2ccccc2S1(=O)=O		LAV-1	PBMC	>100 µM
C/C(=N\NC(=O)CN1c2c(-c3ccccc3)n[nH]c2-c2ccccc2S1(=O)=O)c1ccc(Br)s1			PBMC	>100 µM
COc1cc(C[C@H](C[C@H](O)[C@H](Cc2ccccc2)NC(=O)OC(C)(C)C)C(=O)N[C@H](C(=O)N[C@@H](Cc2ccccc2)C(=O)N2CCOCC2)C(C)C)cc(OC)c1OC		MN	MT-2	1 µM
CCCCCCCCCCCCCCCCOCCCOP(=O)(N[C@@H](C)C(=O)OC)OC[C@@H]1OC[C@H](n2cc(C)c(=O)[nH]c2=O)O1	RT-M184V	LAI	PBMC	15 µM
COc1nc(N)nc2c1ncn2[C@H]1CO[C@@H](CO)O1		LAI	PBMC	5.1 µM
Cc1cn([C@H]2CO[C@@H](COP(=O)(N[C@@H](C)C(=O)OCc3ccccc3)Oc3cccc4ccccc34)O2)c(=O)[nH]c1=O	RT-M184V	LAI	PBMC	11.6 µM
Cc1cccc(C(=O)OCc2nc3ccccc3nc2C)c1O		BaL	PBMC	>100 µM
COc1ccc(C[C@H](C[C@H](O)[C@H](Cc2ccccc2)NC(=O)OC(C)(C)C)C(=O)N[C@H](C(=O)N[C@@H](Cc2ccccc2)C(=O)N2CCOCC2)C(C)C)cc1OC		MN	MT-2	0.1 µM
Cc1cn([C@@H]2S[C@H](CO)[C@H]2CO)c(=O)[nH]c1=O		xxBRU	PBMC	>100 µM
CN1c2c(-c3ccccc3)nn(CC(=O)N/N=C/c3ccc([N+](=O)[O-])cc3)c2-c2ccccc2S1(=O)=O		LAV-1	PBMC	>100 µM
C/C(=N\NC(=O)CN1c2c(-c3ccccc3)n[nH]c2-c2ccccc2S1(=O)=O)c1cc(C)oc1C			PBMC	>100 µM
Cc1ccc(C(=O)OCc2nc3ccccc3nc2C)cc1O		BaL	PBMC	>100 µM
C/C(=N\NC(=O)CN1c2c(-c3ccccc3)n[nH]c2-c2ccccc2S1(=O)=O)c1ccc(C)s1			PBMC	>100 µM
CN1c2c(-c3ccccc3)nn(CC(=O)N/N=C/c3c(Cl)cccc3Cl)c2-c2ccccc2S1(=O)=O		LAV-1	PBMC	>100 µM
Cc1cn([C@H]2C[C@H](N=[N+]=[N-])[C@@H](CO)O2)c(=O)[nH]c1=O			PBMC	0.014 µM
Cc1cn([C@H]2C[C@H](N=[N+]=[N-])[C@@H](CO)O2)c(=O)[nH]c1=O		89BZ167	PBMC	0.0097 µM
COc1ccc(C[C@H](C[C@H](O)[C@H](Cc2ccccc2)NC(=O)OC(C)(C)C)C(=O)N[C@H](C(=O)N[C@@H](Cc2ccccc2)C(=O)N2CCOCC2)C(C)C)c(OC)c1		MN	MT-2	0.03 µM
O=c1[nH]cnc2c1ncn2[C@@H]1S[C@H](CO)[C@H]1CO		xxBRU	PBMC	>100 µM
COc1ccc(C[C@H](C[C@H](O)[C@H](Cc2ccccc2)NC(=O)OC(C)(C)C)C(=O)N[C@H](C(=O)NCCN(C)C)C(C)C)cc1OC		MN	MT-2	1 µM
COC(=O)[C@H](C)NP(=O)(OC[C@@H]1OC[C@H](n2cc(C)c(=O)[nH]c2=O)O1)Oc1ccc(C)cc1	RT-M184V	LAI	PBMC	3.4 µM
CN1c2c(-c3ccccc3)nn(CC(=O)N/N=C/c3ccccc3[N+](=O)[O-])c2-c2ccccc2S1(=O)=O		LAV-1	PBMC	>100 µM
Cc1cn([C@H]2S[C@@H](CO)[C@@H]2CO)c(=O)[nH]c1=O		xxBRU	PBMC	>100 µM
CN1c2c(-c3ccccc3)nn(CC(=O)N/N=C/c3cccc(Br)c3)c2-c2ccccc2S1(=O)=O		LAV-1	PBMC	>100 µM
Cc1nc2ccccc2nc1COC(=O)c1ccc2ccccc2c1O		BaL	PBMC	>100 µM
CCOCCCNC(=O)[C@@H](NC(=O)[C@H](Cc1ccc(OC)c(OC)c1OC)C[C@H](O)[C@H](Cc1ccccc1)NC(=O)OC(C)(C)C)C(C)C		MN	MT-2	0.03 µM
COC(=O)[C@H](C)NP(=O)(OC[C@@H]1OC[C@H](n2cc(C)c(=O)[nH]c2=O)O1)Oc1ccc(OC)cc1	RT-M184V	LAI	PBMC	2.6 µM
Nc1nc2c(ncn2[C@@H]2C=C(F)[C@H](CO)C2)c(=O)[nH]1		LAI	PBMC	>100 µM
COc1cccc(C[C@H](C[C@H](O)[C@H](Cc2ccccc2)NC(=O)OC(C)(C)C)C(=O)N[C@H](C(=O)N[C@@H](Cc2ccccc2)C(=O)N2CCOCC2)C(C)C)c1		MN	MT-2	0.03 µM
CC(=O)Nc1ccc(/C=N/NC(=O)Cn2nc(-c3ccccc3)c3c2-c2ccccc2S(=O)(=O)N3C)cc1		LAV-1	PBMC	>100 µM
COC(=O)c1ccc(C(=O)OCc2nc3ccccc3nc2C)cc1		BaL	PBMC	>100 µM
C/C(=N\NC(=O)CN1c2c(-c3ccccc3)n[nH]c2-c2ccccc2S1(=O)=O)c1cc(C)sc1C			PBMC	>100 µM
CN1c2c(-c3ccccc3)nn(CC(=O)N/N=C/c3ccc(Cl)c(Cl)c3)c2-c2ccccc2S1(=O)=O		LAV-1	PBMC	>100 µM

3 of the rows above, restated:

compound	mutations	strain or isolate	cell line	value
O=c1ccn([C@@H]2S[C@H](CO)[C@H]2CO)c(=O)[nH]1		xxBRU	PBMC	23.1 µM
C/C(=N\NC(=O)CN1c2c(-c3ccccc3)n[nH]c2-c2ccccc2S1(=O)=O)c1cc(C)sc1C			PBMC	>100 µM
CN1c2c(-c3ccccc3)nn(CC(=O)N/N=C/c3c(Cl)cccc3Cl)c2-c2ccccc2S1(=O)=O		LAV-1	PBMC	>100 µM

An empty or dashed field is not shown. Neighbouring rows are from separate reports.